In the series the test system is Nc1ncnc2c1ncn2[C@@H]1O[C@H](COP(=O)(O)OP(=O)(O)OP(=O)(O)O)[C@@H](O)[C@H]1O. The experiment in a line: purified protein. The following applies: pH 7.5; 37.0 °C.

The term Km denotes the concentration of substrate that gives half-maximal velocity. With (Mycobacterium tuberculosis H37Rv), the Km stood at 20 ± 10 µM.
